{"source": "PubChem BioAssay AID504761 – Drosophila RNAi Screening Center, 2011", "screen": "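Fly genes whose silencing reduces dengue virus type 2 infection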 (primary screen)", "cell system": "D.Mel-2 cells from Drosophila", "reagent": "long dsRNA against Drosophila genes", "conditions": "infection with dengue virus type 2; dose and infection time not stated", "measurement": "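Per well on two replicate plates, imaging gave the percent of cells positive for viral envelope protein, ranked by infection, and a nuclear count of cells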", "reading the numbers": "infection score: higher = more virus-infected cells; cell count: higher = more cells in the well", "rule for the call": "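Very low infection ranking in both replicate wells (chance probability at most 0.065), then a retest showing infection dropped 1.5-fold or more at p below 0.05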", "meaning of the calls": "active = confirmed: knock-down lowers infection; inactive = not picked or not confirmed", "note": "In all, the deposit lists about 22,000 reagents; this is a random part of those that have a named target and a result. Over the whole deposit, 116 (0.52%) are marked active. 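Calls depend on retest data that are not deposited; infection was ranked per plate without normalising between plates; the unit of the infection score is not given.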 Raw values are not corrected between plates. Entries without a mark were called inactive. Not all columns of the deposit are shown. Reagent sequences are not shown. Not given: the amount of reagent, the time to read-out."}
{"gene knocked down": "rswl (roswell)", "dsRNA": "DRSC06923", "infection score, replicate 1": 9.77, "cell count, replicate 1": 5742}
{"gene knocked down": "sona (sol narae)", "dsRNA": "DRSC04089", "infection score, replicate 1": 5.07, "cell count, replicate 1": 6720}
{"gene knocked down": "sona (sol narae)", "dsRNA": "DRSC04574", "infection score, replicate 1": 21.8, "cell count, replicate 1": 5364}
{"gene knocked down": "sona (sol narae)", "dsRNA": "DRSC04575", "cell count, replicate 1": 485}
{"gene knocked down": "CG1143", "dsRNA": "DRSC08188", "infection score, replicate 1": 11, "cell count, replicate 1": 4420}
{"gene knocked down": "Fign (Fidgetin)", "dsRNA": "DRSC00592", "infection score, replicate 1": 3.35, "cell count, replicate 1": 6515}
{"gene knocked down": "l(3)L1231 (lethal (3) L1231)", "dsRNA": "DRSC16323", "infection score, replicate 1": 8.64, "cell count, replicate 1": 5738}
{"gene knocked down": "Fbl6 (F-box and leucine-rich repeat protein 6)", "dsRNA": "DRSC06335", "infection score, replicate 1": 8.79, "cell count, replicate 1": 2457}
{"gene knocked down": "Fbl6 (F-box and leucine-rich repeat protein 6)", "dsRNA": "DRSC24271", "infection score, replicate 1": 5.06, "cell count, replicate 1": 6543}
{"gene knocked down": "CG18549", "dsRNA": "DRSC15347", "infection score, replicate 1": 1.73, "cell count, replicate 1": 5908}
{"gene knocked down": "CG18549", "dsRNA": "DRSC28847", "infection score, replicate 1": 5.52, "cell count, replicate 1": 1267}
{"gene knocked down": "CG2124", "dsRNA": "DRSC18208", "infection score, replicate 1": "0.51 (active)", "cell count, replicate 1": 6255}

A few values from above:
Under “infection score, replicate 1”, rswl (roswell) [DRSC06923] shows 9.77
For “infection score, replicate 1”, l(3)L1231 (lethal (3) L1231) [DRSC16323] reads 8.64

Next results:
{"gene knocked down": "eIF2Bgamma (eukaryotic translation initiation factor 2B subunit gamma)", "dsRNA": "DRSC07100", "infection score, replicate 1": 46.3, "cell count, replicate 1": 4752}
{"gene knocked down": "eIF2Bgamma (eukaryotic translation initiation factor 2B subunit gamma)", "dsRNA": "DRSC29765", "infection score, replicate 1": 27.2, "cell count, replicate 1": 5536}
{"gene knocked down": "CG14642", "dsRNA": "DRSC12228", "infection score, replicate 1": 11.3, "cell count, replicate 1": 5798}
{"gene knocked down": "CG10347", "dsRNA": "DRSC19352", "infection score, replicate 1": 1.41, "cell count, replicate 1": 6234}
{"gene knocked down": "CG32017", "dsRNA": "DRSC17183", "infection score, replicate 1": 1.85, "cell count, replicate 1": 6420}
{"gene knocked down": "CG7849", "dsRNA": "DRSC04895", "infection score, replicate 1": 1.35, "cell count, replicate 1": 6421}
{"gene knocked down": "CG7849", "dsRNA": "DRSC26457", "infection score, replicate 1": 3.6, "cell count, replicate 1": 6550}
{"gene knocked down": "ebi", "dsRNA": "DRSC00816", "infection score, replicate 1": 6.44, "cell count, replicate 1": 5562}
{"gene knocked down": "Mfe2 (peroxisomal Multifunctional enzyme type 2)", "dsRNA": "DRSC19869", "infection score, replicate 1": 2.43, "cell count, replicate 1": 864}
